## Primary screen of a compound library

Values are the deposited “Percent Effect”, in %. The record does not define 0% and 100%; most values in the screen are far below 50% and negative numbers occur (in some assays of this library far below -100). This is part of a subset picked to be rich in strong results. A dash means the value is not listed here; it may have been measured.

Mtb cholesterol medium: 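Phenotypic screen: M. tuberculosis growth, cholesterol and DPPC medium, 4 days; the read-out is not stated. Tested at 500 µM. Direction is inferred from retests: higher values go with more growth inhibition. About 18,000 compounds were tested under these conditions; 5% (about 900) showed 50% or more at least once.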
Mtb glucose medium: 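Growth of Mycobacterium tuberculosis over 3 days (7H9 medium with glucose and tyloxapol); the read-out is not stated. Concentration: 500 µM. The record gives no direction; compounds that gave an IC50 in retests scored well above the rest, so higher reads as more growth inhibition. About 18,000 compounds were tested under these conditions; 7.9% (about 1,400) showed 50% or more at least once.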

| structure | Mtb cholesterol medium | Mtb glucose medium |
|---|---|---|
| `Cc1ccc(NC(=O)N2CCCN(C)CC2)cc1` | 3.28% | - |
| `N#CCC(=O)C1CCCOC1` (stereo not drawn) | - | -12.24% |
| `CC(C)(C)OC(=O)N1CCC(N2CC(O)C2)CC1` | 8.823% | - |
| `CC1CCCCN1CC(=O)NC1(C#N)CCCC1` (stereo not drawn) | - | -0.8095% |
| `CC(C)CCn1ccc(NC(=O)N2CCC(O)C2)n1` (stereo not drawn) | -8.594% | - |
| `COC(=O)NCC(=O)N(C)c1ccc2ccccc2c1` | - | 50.48% |
| `Cc1n[nH]cc1CNc1cc2c(cc1F)NC(=O)CC2` | - | 12.44% |
| `CN1CCCN(Cc2ccc3c(c2)OCO3)CC1` | - | 1.122% |
| `CN(C)CC(=O)Nc1cccc(S(N)(=O)=O)c1` | -23.44% | - |
| `O[C@H]1CN(Cc2cccnc2)C[C@@H]1N1CCCCC1` | 12.82% | - |
| `Cc1cccc(C2(O)CCNCC2)c1C` | 3.315% | - |
| `CC(C)(CNC(=O)N1CCC1)c1ccc2c(c1)OCO2` | 15.7% | - |
| `NS(=O)(=O)NCC1CCN(c2cccc(Br)c2)C1` (stereo not drawn) | - | 75.79% |
| `Cc1n[nH]c(SCC(=O)NCCN2CCCC2=O)n1` | 8.224% | - |
| `O=c1cccnn1CC(O)COCc1ccccc1F` (stereo not drawn) | - | 31.37% |
| `Cc1nccn1CCNC(=O)OC(C)(C)C` | - | -2.621% |
| `CCc1nccn1CC(=O)NCCCc1csc(N)n1` | 2.662% | - |
| `COc1cccc(OC)c1OCC(O)COC(C)C` (stereo not drawn) | 10.94% | - |
| `COC(CNC(=O)N1CCSCC1)c1ccc(F)cc1` (stereo not drawn) | 48.84% | 61.85% |
| `CCc1nc(N2CCN(C)C(CCO)C2)ncc1C` (stereo not drawn) | - | 30.18% |
| `NC(=O)COc1ccc(CNCCn2cccn2)cc1` | - | 0.6594% |
| `COCCOC(=O)N1CCN2CCNC(=O)C2C1` (stereo not drawn) | - | 3.445% |
| `CSCc1noc(CN2CC[C@@](C)(O)[C@@H](O)C2)n1` | -1.066% | - |
| `CS(=O)(=O)CCS(N)(=O)=O` | - | 3.909% |
| `NCCCN1CCN(c2ccccc2F)CC1` | 104.7% | 60.25% |
| `NC1CCN(C(=O)c2cnccn2)CC1` | - | 0.2208% |
| `NC(=O)C1CCN(C(=O)CN2CCOCC2)CC1` | -13.67% | - |
| `CCN(CC)C(=O)CN1CCCC(C)C1` (stereo not drawn) | - | 1.386% |
| `NC(=O)CC(NCc1ccc(Br)o1)C1CCOCC1` (stereo not drawn) | - | -12.49% |
| `N#Cc1cnc2ccccc2c1N` | -19.92% | - |
| `c1ccc2[nH]c([C@H]3CCCN3)nc2c1` | 9.638% | - |
| `NCC(O)c1ccncc1` (stereo not drawn) | 5.59% | 7.48% |
| `CCNC(=O)c1csc(N2CCCC(C)C2)n1` (stereo not drawn) | - | 46.68% |
| `Cc1cc(C(=O)NCC(CO)c2ccccc2)ns1` (stereo not drawn) | 71.26% | 73.01% |
| `COCC(C)Nc1cncc(Br)c1` (stereo not drawn) | 4.778% | - |
| `CS(=O)(=O)NCC(=O)NC(C#N)c1ccc(Cl)c(Cl)c1` (stereo not drawn) | -7.341% | - |
| `O=C(Cn1ccc2ccccc21)N1CCCC1` | 57.81% | 56.53% |
| `CC1(C(=O)NCC(CO)Cc2cccs2)CCNCC1` (stereo not drawn) | 0.8887% | 8.209% |
| `O=C(Nc1nncs1)c1ccccn1` | 46.03% | 73.71% |
| `Cc1nn(C)c(C)c1NC(=O)NCCc1c[nH]cn1` | 1.001% | - |
| `Cn1nc(-c2ccsc2)cc1N` | 7.44% | - |
| `O=C(c1ccccc1C(F)(F)F)N1CCCNCC1` | - | 25.8% |
| `c1ccc(C2CCCN2)nc1` (stereo not drawn) | 9.272% | - |
| `O=C(Nc1cc(F)cc(F)c1)N[C@@H]1CNCC[C@H]1O` | - | 30.35% |
| `COc1ccc(C(C(N)=O)N2CCOCC2)cc1` (stereo not drawn) | - | 5.764% |
| `CC(N)(CO)c1cccc(O)c1` (stereo not drawn) | - | 4.775% |
| `COc1cccc(NC(=O)CCN2C(=O)CCC2=O)c1` | - | -4.727% |
| `NCc1cn2c(n1)CCCC2` | - | 12.97% |
| `Cn1cc(C(=O)NCc2cccc(F)c2)ccc1=O` | -7.69% | -3.376% |
| `O=C(CN1CCOCC1)c1cccc(Cl)c1` | - | 13.97% |
| `COCC(=O)NC(Cc1ccccc1)[C@H]1C[C@H](O)C1` (stereo partly drawn) | - | 18.11% |
| `CC1(N)CCN(Cc2ccccc2)C1` (stereo not drawn) | 3.357% | - |
| `COCCn1cc(Br)cn1` | -10.61% | - |
| `CCN1CCCC1CNC(=O)c1ccccc1F` (stereo not drawn) | - | 2.57% |
| `CN(CCS(=O)(=O)c1ccc(Cl)cc1)CC(=O)N(C)C` | 106.7% | 99.17% |
| `CCNC(=O)c1noc(-c2ccc[nH]c2=O)n1` | -17.35% | -13.59% |
| `NC(=O)c1ccc2c(c1)CCCN2Cc1ccon1` | - | 22.59% |
| `CC(=O)c1ccc(S(=O)(=O)NC(CN)C2CC2)cc1` (stereo not drawn) | - | 9.237% |
| `Cc1cc(C)n(CCCC(=O)N[C@@H]2COCC[C@H]2O)n1` | -13.68% | - |
| `CCN(CC)C(=O)CN(C)C(=O)CC(C)(C)C#N` | - | -0.3042% |
| `CCC(NC(=O)c1cnc(O)cn1)c1nc(C)c(C)s1` (stereo not drawn) | -1.004% | - |
| `COCc1ccc(SCC(=O)N(C)C)cc1` | - | 52.43% |
| `COc1ccc(C(C)NCC(C)(C)C(N)=O)c(F)c1` (stereo not drawn) | - | -7.786% |
| `Cc1occc1C(=O)NCC(F)(F)F` | -0.4743% | - |
| `CC(C)(C)NCCNC(=O)CCc1ccccn1` | - | -10.78% |
| `COC(=O)NCC(=O)NC1CCCCNC1=O` (stereo not drawn) | 2.145% | - |
| `CC(C)c1cc(C(F)(F)CN)[nH]n1` | - | 25.09% |
| `CS(=O)(=O)CCNC(=O)CCN1CCCCCCC1` | 10.79% | 6.77% |
| `CCS(=O)(=O)N1CCCN(C(=O)NC(C)(C)C)CC1` | -3.882% | - |
| `COC(=O)c1ccc(C(=O)NC2CC2)nc1` | 7.509% | - |

Once more, the final 6:

Result for CC(C)(C)NCCNC(=O)CCc1ccccn1 was Mtb glucose medium: -10.78%.
Result for COC(=O)NCC(=O)NC1CCCCNC1=O (stereo not drawn) was Mtb cholesterol medium: 2.145%.
Result for CC(C)c1cc(C(F)(F)CN)[nH]n1 was Mtb glucose medium: 25.09%.
Result for CS(=O)(=O)CCNC(=O)CCN1CCCCCCC1 was Mtb cholesterol medium: 10.79%; Mtb glucose medium: 6.77%.
Result for CCS(=O)(=O)N1CCCN(C(=O)NC(C)(C)C)CC1 was Mtb cholesterol medium: -3.882%.
Result for COC(=O)c1ccc(C(=O)NC2CC2)nc1 was Mtb cholesterol medium: 7.509%.

The values are deposited in ChEMBL (CHEMBL3988442, “University of Dundee, Small-Polar-MMV Screening Library” (2021)).